Pooled drug test results. Numbers come from NIAID ChemDB, via PubChem.

Shared fields: growth or infection tests; species: HIV-1; cells: MT-4; endpoint: EC50

Two numbers with a dash give a range or band.

smiles | strain | changes | read by | value
O=c1ccn([C@@H]2O[C@H](CO)[C@](O)(C(F)(F)F)[C@H]2O)c(=O)[nH]1 |  |  |  | >100 µM
Cc1ccc(-c2nc(-c3nnc(C45CCC6CC(CC4C6)C5)o3)cs2)cc1 | IIIB |  | MTT | >105.7 µM
COCn1c(Cc2ccc3ccccc3c2)c(C)c(=O)[nH]c1=O | LAV |  |  | 15.6 µM
Brc1ccc(-c2nc(-c3nnc(C45CCC6CC(CC4C6)C5)o3)cs2)cc1 | IIIB |  | MTT | >110 µM
CCOCn1c(Cc2ccc3ccccc3c2)c(C)c(=O)[nH]c1=O | LAV |  |  | 3.27 µM
CCc1c(Cc2ccccc2C)n(COCC#CC2c3ccccc3-c3ccccc32)c(=O)[nH]c1=O | IIIB | WT | MTT | 12 µM
COc1ccc(/C=C2\C(=O)N(CCc3ccc(OC)c(OC)c3)C(=S)N2CCc2ccc(OC)c(OC)c2)cc1 | IIIB |  | cytopathic effect / MTT | >78.75 µg/mL
CC(=O)Nc1ccn([C@H]2CS[C@@H](COC(C)=O)O2)c(=O)n1 | BRU |  | syncytia | ~0.1 µM
CC(=O)Nc1cc(S(=O)(=O)O)cc2cc(S(=O)(=O)O)cc(O)c12 | HE |  | MTT | 9.2 µM
CCc1c(Cc2cc(C)cc(C)c2)n(COCC#Cc2ccc(C=O)cc2)c(=O)[nH]c1=O | IIIB | Y181C | MTT | 1.7 µM
Nc1ccn([C@@H]2CS[C@H](CO)O2)c(=O)n1 | BRU |  | syncytia | <0.1 µM
CCOC(=O)CNc1nc(Nc2ccc(Cl)cc2)nc(Oc2cc(=O)oc3ccccc23)n1 | IIIB |  | MTT | 6.86 µg/mL
COc1ccc(CCN2C(=O)/C(=C\c3cc(OC)c(OC)c(OC)c3)N(CCc3ccc(OC)c(OC)c3)C2=S)cc1OC | IIIB |  | cytopathic effect / MTT | >13.45 µg/mL
O=c1ccn([C@@H]2O[C@H](CO)[C@@H](CO)[C@@H]2O)c(=O)[nH]1 |  |  | MTT | >100 µM
CC(C)(C)OC(=O)N[C@H](Cc1ccccc1)/C(O)=C(\C#N)c1c(F)c(F)c(F)c(F)c1F | IIIB |  | RT activity | 24 µM
CC1=C(/C=C/C=C/C=C/C=C/C(=O)OC[C@H]2O[C@@H](n3ccc(N)nc3=O)CS2)C(C)(C)CCC1 | BRU |  | syncytia | ~1 µM
NC1=NC=NC2C1N=CN2[C@H]1C[C@@H](CCP(=O)(O)O)CO1 |  |  | MTT | 12.6 µg/mL
COc1ccc(NC(=O)Nc2nc(NCCc3ccc(OC)c(OC)c3)nc(Oc3cc(=O)oc4ccccc34)n2)cc1 | IIIB |  | MTT | >61.6 µg/mL
Nc1ccn([C@@H]2O[C@H](CO)[C@](O)(C(F)(F)F)[C@H]2O)c(=O)n1 |  |  |  | >100 µM
C=CCn1cc(COCn2c(Cc3cc(C)cc(C)c3)c(CC)c(=O)[nH]c2=O)nn1 | IIIB | EFV-resistant (K103R V179D P225H) | MTT | 6 µM
Cc1cccc(-c2nc(-c3nnc(C45CCC6CC(CC4C6)C5)o3)cs2)c1 | IIIB |  | MTT | >125 µM
O=C(O)/C=C/c1cn([C@@H]2O[C@H](CO)[C@@H](CO)[C@@H]2O)c(=O)[nH]c1=O |  |  | MTT | >100 µM
CC(=O)c1cc(-c2ccccc2)n(-c2cccc(N)c2)c1C |  |  | cytopathic effect / MTT | >22 µM
CCc1c(Cc2cc(C)cc(C)c2)n(COCC#Cc2ccc(O)cc2)c(=O)[nH]c1=O | IIIB | K103N + Y181C | MTT | 6 µM
N#Cc1cc(Cl)cc(Oc2cc(Cl)cc(OCc3nc4ccccc4s3)c2)c1 |  |  | p24 | <20 µM
Fc1cccc(-c2nc(-c3nnc(C45CCC6CC(CC4C6)C5)o3)cs2)c1 | IIIB |  | MTT | >125 µM
Nc1c(S(=O)(=O)O)cc2cc(S(=O)(=O)O)cc(O)c2c1O | HE |  | cytopathic effect / MTT | 9.2 µM
COCn1c(Cc2cccc3ccccc23)c(C)c(=O)[nH]c1=O | LAV |  |  | 1.451 µM
O=c1ccn([C@@H]2OC3COC(O)C3[C@@H]2O)c(=O)[nH]1 |  |  | MTT | >100 µM
N#Cc1cc(Cl)cc(Oc2cc(F)cc(OCc3[nH]nc4nc(N)ccc34)c2)c1 |  |  | p24 | <20 µM
CCOC(=O)CNc1nc(NC(=O)Nc2ccc(Cl)cc2)nc(Oc2cc(=O)oc3ccccc23)n1 | IIIB |  | MTT | >125 µg/mL
CC(=O)Nc1cc(S(=O)(=O)O)c2cccc(S(=O)(=O)O)c2c1 | IIIB |  | cytopathic effect / MTT | >414 µM
N#Cc1cc(Cl)cc(Oc2cc(Cl)cc(OCc3nc4cccc(Cl)c4s3)c2)c1 |  |  | p24 | <20 µM
CCOC(=O)c1cc(-c2cccc(N=[N+]=[N-])c2)n(-c2ccccc2)c1C |  |  | cytopathic effect / MTT | >300 µM
O=c1ccn([C@@H]2O[C@H](CO)[C@H](CO)[C@@H]2O)c(=O)[nH]1 |  |  | MTT | >100 µM
COc1cccc2c1nc(-c1ccccc1F)n2CCC(C)C | IIIB |  |  | 0.0083 µg/mL
O=C1NC(=O)C2C1[C@@H]1C=C[C@H]2C1=C(c1ccccc1)c1ccccc1 | IIIB |  | cytopathic effect / MTT | >51 µM
CCCc1c(Cc2cccc3ccccc23)n(COCc2ccccc2)c(=O)[nH]c1=O | LAV |  |  | 0.234 µM
Cc1cn([C@@H]2O[C@H](CO)[C@@H](CO)[C@@H]2O)c(=O)[nH]c1=O |  |  | MTT | >100 µM
CCOC(=O)c1cc(-c2cccc(Br)c2)n(-c2cccc(OC)c2)c1C |  |  | cytopathic effect / MTT | >143 µM
O=c1[nH]c(=O)n([C@H]2C[C@H](CO)[C@@H](CO)O2)cc1I |  |  | MTT | >100 µM
COc1ccc(CCNc2nc(NC(=S)Nc3cccc(C)c3)nc(Oc3cc(=O)oc4ccccc34)n2)cc1OC | IIIB |  | MTT | >61.2 µg/mL
COc1cccc2c1nc(-c1ccccc1F)n2Cc1ccccc1C#N | IIIB |  |  | 0.061 µg/mL
O=C(/C=C/C1=CC2C=Cc3cc(O)c(O)cc3OC2C(O)=C1)OC(Cc1ccc(O)c(O)c1)C(=O)O | IIIB |  | p24 | 0.649–4.28 µg/mL
COc1cccc2c1nc(-c1ccccc1F)n2CC=C(Cl)Cl | IIIB |  |  | 0.077 µg/mL
CCOC(=O)CNc1nc(NC(=O)Nc2ccccc2)nc(Oc2cc(=O)oc3ccccc23)n1 | IIIB |  | MTT | >125 µg/mL
O=C1C2C3C=CC(C3=C(c3ccccc3)c3ccccc3)C2C(=O)N1CCN1CCCCC1 | IIIB |  | cytopathic effect / MTT | >38 µM
Nc1ncnc2c1ncn2[C@@H]1O[C@H](CO)[C@@H](O)[C@H]1CO |  |  | ATP | >53 µM
COc1ccc(CCN2C(=O)/C(=C\c3ccc(N(C)C)cc3)N(CCc3ccc(OC)c(OC)c3)C2=S)cc1OC | IIIB |  | cytopathic effect / MTT | >17.7 µg/mL
CCOC(=O)c1cc2c3cc(N)ccc3c3ccc(OC)cc3n2c1C |  |  | cytopathic effect / MTT | >200 µM
COc1ccc(CCN2C(=O)/C(=C\c3ccccc3)N(CCc3ccc(OC)c(OC)c3)C2=S)cc1OC | IIIB |  | cytopathic effect / MTT | >62.95 µg/mL
CN(CC(N)=O)c1ccc2c(COc3ccc(Cl)c(Oc4cc(Cl)cc(C#N)c4)c3)[nH]nc2n1 |  |  | p24 | <20 µM
Clc1ccc(-c2nc(-c3nnc(C45CCC6CC(CC4C6)C5)o3)cs2)cc1 | IIIB |  | MTT | >125 µM
CCOC(=O)CNc1nc(Nc2ccc(Br)cc2)nc(Oc2cc(=O)oc3ccccc23)n1 | IIIB |  | MTT | 7.16 µg/mL
O=c1[nH]c(=O)n([C@@H]2O[C@H](CO)[C@@H](CO)[C@@H]2O)cc1I |  |  | MTT | >100 µM
COc1ccc(CCN2C(=O)/C(=C\c3ccccc3Cl)N(CCc3ccc(OC)c(OC)c3)C2=S)cc1OC | IIIB |  | cytopathic effect / MTT | >23.1 µg/mL

4 of the rows above, restated:

smiles | strain | changes | read by | value
CC(=O)c1cc(-c2ccccc2)n(-c2cccc(N)c2)c1C |  |  | cytopathic effect / MTT | >22 µM
CCOCn1c(Cc2ccc3ccccc3c2)c(C)c(=O)[nH]c1=O | LAV |  |  | 3.27 µM
CCOC(=O)CNc1nc(Nc2ccc(Br)cc2)nc(Oc2cc(=O)oc3ccccc23)n1 | IIIB |  | MTT | 7.16 µg/mL
COc1ccc(CCN2C(=O)/C(=C\c3ccc(N(C)C)cc3)N(CCc3ccc(OC)c(OC)c3)C2=S)cc1OC | IIIB |  | cytopathic effect / MTT | >17.7 µg/mL

Blank or dashed fields: not listed here. ECn is the concentration giving n% inhibition of infection, replication or growth. Rows are shuffled and stem from different studies.